Test results published in US6340573B1, “Chromogenic substrates for detecting bacterial hydrolases” (Bio Merieux, priority 1998, dated 2002).

Test system: Alanine-aminopeptidase
Test: GRAM identification with impregnated bottle brush
Format: cell-based, Gram-negative bacteria
From the text: According to a representative example, the GRAM identification process uses a substrate based on aminobenzene or a derivative thereof, such as DiMethyl-paraPhenyleneDiamine (DMpPD). In the example which follows, the substrate consists of Alanine-Dimethyl-paraPhenyleneDiamine (AlaDMpPD).
It functions as follows. Enzymatic hydrolysis causes release of the DMpPD group. Next, the DMPD binds with α-naphthol (or a derivative) by oxidative coupling facilitated by an oxidizing agent, potassium ferricyanide (K3Fe(CN)6). This then causes formation of a violet-gray complex.
Another device has been defined, which is even more specific in Gram identification and which can also be used with blood agars of Columbia type. It consists of:
a medium consisting of a blood agar of Columbia type (with or without AlaDMpPD), and
a reaction mixture which impregnates a bottle brush and which is constituted on the basis of α-naphthol, potassium ferricyanide and AlaDMpPD and then dried.
This reaction mixture contained in the bottle brush was further improved by adding a step of drying the bottle brushes, which facilitates their subsequent manipulation.
The exact composition is as follows:
for the agar, presence or absence of AlaDMpPD at 0.075 gram per liter (g/l), and
α-naphthol from 0.01 to 5 g/l, preferably from 0.1 to 1 g/l, and for example 0.5 g/l,
potassium ferricyanide from 0.01 to 5 g/l, preferably from 0.1 to 1 g/l, and for example 0.5 g/l, and
AlaDMpPD from 0.01 to 5 g/l, preferably from 0.1 to 1 g/l, and for example 0.35 g/l.
The results obtained in terms of sensitivity and specificity are thus the best obtained. In this case, the detection of the reaction is not instantaneous. It takes 15 to 30 seconds (s) to observe the appearance of any coloration, this being the time required for hydrolysis of the substrate by the bacterial aminopeptidase.
Sixty-one strains on different media such as: Polyvitex chocolate agar (registered trademark), CPS ID2 medium (registered trademark), TSA +/− blood and Columbia +/− blood were tested with bottle brushes impregnated with α-naphthol, potassium ferricyanide and AlaDMpPD and then dried.
To further improve the reaction time, a reaction activator is incorporated into the medium.
This small amount corresponds to a concentration of from 0.01 to 0.5 g/l, preferably from 0.05 to 0.1 g/l, and for example 0.075 g/l.
According to one embodiment, it is also possible to add a binder to the bottle brush. The addition of a binder makes it possible both to gather together the fibers in the head of the bottle brush and to limit the release of products present on the bottle brush into the inoculum suspension. Such a binder can consist of PolyVinylPyrrolidone (PVP), which in fact makes it possible not only to satisfy the above criteria but also to substantially increase the specificity. In the composition described above with the concentrations, the PVP is introduced into the constituents of the viscose head of the bottle brush in a concentration of from 1 to 50 g/l, preferably from 10 to 25 g/l, and for example 15 g/l.
An evaluation of this medium was thus carried out on one hundred and thirty-three (133) strains divided among the following species.

Substance: Alanine-Dimethyl-paraPhenyleneDiamine [AlaDMpPD]
- Gram-negative bacteria detected between 0 and 10 s: About 90%
- Sensitivity (133 strains, bottle brush with α-naphthol, potassium ferricyanide, AlaDMpPD): 93%
- false positives, number of strains (C. ulcerans, of 2 strains): 2
- false positives, number of strains (E. faecalis, of five (5) strains): 1
- false negatives, number of strains (H. influenzae, of two (2) strains): 1
- false negatives, number of strains (P. fluorescens, of five (5) strains): 2
- false positives, number of strains (S. agalactiae, of four (4) strains): 2
- false positives, number of strains (S. pyogenes, of 3 strains): 3
- result of Gram identification (the strain of C. guilliermondii): false positives
- result of Gram identification (the strain of C. parapsilosis): false positives
